Measurements reported in PubChem BioAssay AID624099 (ICCB-Longwood, 2012).
In all, the deposit lists about 21,000 reagents; below is an unselected part. In the full data, 497 (2.4%) got an active call. 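Higher z means weaker E2 silencing; only reporter increases were scored, and knock-downs that hurt cell survival may mask genuine repressor factors.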

Test: 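Human genes that papillomavirus E2 requires to repress the HPV18 LCR promoter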 (primary screen)
Cell system: human C33A cervical carcinoma cells (HPV-negative) stably expressing BPV1 E2 and an HPV18 LCR luciferase reporter
Knock-down reagent: siRNA pool against human genes, 40 nM
Duration: 72 h
Read-out: 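Per-well luciferase luminescence, z-scored on each plate against the plate mean and SD with control wells left out, then averaged across three replicate plates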
Direction: mean z-score and z-score: higher = stronger reporter signal, weaker E2 silencing
Call rule: 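Mean z ≥ 2 together with z ≥ 2 in two or more of the three replicates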

For CCDC158 the deposit lists mean z-score -0.45; z-score, replicate A = -0.6; z-score, replicate B = -0.57; z-score, replicate C = -0.18; inactive.
Knock-down of SERPINB8 resulted in: mean z-score 0.74; z-score, replicate A = 0.76; z-score, replicate B = 0.36; z-score, replicate C = 1.1; inactive.
CRHR2 gave mean z-score -0.23; z-score, replicate A = -0.42; z-score, replicate B = -0.27; z-score, replicate C = 0.01; inactive.
Against RHBDD3 the deposit lists mean z-score -0.01; z-score, replicate A = -0.02; z-score, replicate B = -0.2; z-score, replicate C = 0.18; inactive.

Targets above whose target name begins with C or c (2):
CCDC158 | mean z-score: -0.45; z-score, replicate A: -0.6; z-score, replicate B: -0.57; z-score, replicate C: -0.18; activity call: inactive
CRHR2 | mean z-score: -0.23; z-score, replicate A: -0.42; z-score, replicate B: -0.27; z-score, replicate C: 0.01; activity call: inactive

The results go on:
CHML showed mean z-score -1.64; z-score, replicate A = -1.53; z-score, replicate B = -1.51; z-score, replicate C = -1.88; inactive.
TPBG showed mean z-score -0.28; z-score, replicate A = -0.03; z-score, replicate B = -0.53; z-score, replicate C = -0.26; inactive.
CLCA1 showed mean z-score 0.37; z-score, replicate A = 0.85; z-score, replicate B = 0.15; z-score, replicate C = 0.1; inactive.
Against VPS16 the deposit lists mean z-score 2.24; z-score, replicate A = 2.35; z-score, replicate B = 1.89; z-score, replicate C = 2.48; active.
With knock-down of RAB10, the record shows mean z-score 1; z-score, replicate A = 1.04; z-score, replicate B = 1.16; z-score, replicate C = 0.8; inactive.
NME6 showed mean z-score 0.67; z-score, replicate A = 0.69; z-score, replicate B = 0.78; z-score, replicate C = 0.55; inactive.
KCNK10 gave mean z-score -0.55; z-score, replicate A = -0.61; z-score, replicate B = -0.41; z-score, replicate C = -0.62; inactive.
Silencing of DLX6-AS1 gave: mean z-score -1.16; z-score, replicate A = -1.13; z-score, replicate B = -1.27; z-score, replicate C = -1.07; inactive.
